# Sequence variants of PSTVd loop 6 after infection

From the data files of Wu et al. 2024, doi:10.1371/journal.ppat.1012142.

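Three N. benthamiana plants were inoculated with the whole mutant pool. Progeny were sequenced from the inoculated region (day 5), the margin of the inoculated leaf (day 10) and systemic leaves (day 12).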

The pool varies loop 6 of the PSTVd intermediate strain in the pattern UNNNCGNNNG; wild type is UGACCGCGAG (upper and lower strand joined, each 5' to 3', the first 5 letters being the upper strand, closing pairs included).

Values are reads per thousand in the sample; higher means more abundant, 0 means not found.
Each value is the mean of three plants.
"Pool" is the share in the plasmid pool used as inoculum, on the same scale.
The inoculated region was read from the minus strand, the other sites from the plus strand.
The authors trace changes outside the varied positions to PCR and sequencing errors or to mutation in the plant; presence does not show that a variant is infectious alone.
Wild type was 20.7 per thousand in the pool and the most common sequence in every sample (inoculated region 195, 198, 203; leaf margin 629, 591, 734; systemic leaves 942, 870, 868).
With 36,220-57,551 reads a sample, very low values are single reads.

With UUGCCGACGG (pool 0.314) the assay gave inoculated region 0.107; leaf margin 0.00773; systemic leaves 0. For UCGCCGCCAG (pool 0.235) the result was inoculated region 0.119; leaf margin 0; systemic leaves 0. For UAUACGAAGG (pool 0.209) the result was inoculated region 0.113; leaf margin 0.00920; systemic leaves 0. GGACCGCGGG (pool 0.0131) read inoculated region 0.00579; leaf margin 0; systemic leaves 0. UGAGCGGGUG (pool 0.196) read inoculated region 0.604; leaf margin 0.0570; systemic leaves 0.0468. UCAGCGUGGG (pool 0.144) read inoculated region 0.0771; leaf margin 0.00773; systemic leaves 0. UGGGCGCCUG (pool 0.222) read inoculated region 0.0714; leaf margin 0; systemic leaves 0. With UAGGCGUCCG (pool 0.275) the assay gave inoculated region 0.107; leaf margin 0; systemic leaves 0.

For UUUCCGAAUG (pool 0.405) the result was inoculated region 0.120; leaf margin 0.0309; systemic leaves 0. UGCCCGCUAG (pool 0.0915) gave inoculated region 0.595; leaf margin 0.0522; systemic leaves 0.0468. UGAACCCGAG (pool 0.0131) read inoculated region 0.596; leaf margin 0.0592; systemic leaves 0.0331. UAGGCGUGGG (pool 0.222) gave inoculated region 0.0590; leaf margin 0.0169; systemic leaves 0. CGACCGCGAG (pool 0.0261) read inoculated region 0.118; leaf margin 0.353; systemic leaves 0.466. UUUGCGCCCG (pool 0.261) gave inoculated region 0.0835; leaf margin 0.0155; systemic leaves 0. UACUCGUUUG (pool 0.353) gave inoculated region 0.0531; leaf margin 0; systemic leaves 0. With UCCGCUCGAG (pool 0.0131) the assay gave inoculated region 0.00579; leaf margin 0.00773; systemic leaves 0.

UCCACGUUAG (pool 0.288) read inoculated region 0.0708; leaf margin 0; systemic leaves 0. UCAGCGAGGG (pool 0.222) read inoculated region 0.0773; leaf margin 0.00920; systemic leaves 0. UUGCCGUACG (pool 0.275) gave inoculated region 0.0878; leaf margin 0; systemic leaves 0. UCCCCGGGCG (pool 0.157) gave inoculated region 0.0949; leaf margin 0; systemic leaves 0. With UUUGCGAAAG (pool 0.235) the assay gave inoculated region 0.0955; leaf margin 0.0184; systemic leaves 0. For UGUGCGUGGG (pool 0.261) the result was inoculated region 0.112; leaf margin 0; systemic leaves 0.00684. For UGUACGUUUG (pool 0.314) the result was inoculated region 0.102; leaf margin 0.0184; systemic leaves 0. With UCACCGGGUG (pool 0.209) the assay gave inoculated region 0.0715; leaf margin 0.0155; systemic leaves 0.

For UAGGCGACGG (pool 0.183) the result was inoculated region 0.0956; leaf margin 0.00920; systemic leaves 0. With UCUCCGGUUG (pool 0.248) the assay gave inoculated region 0.0293; leaf margin 0.00773; systemic leaves 0. UGUACGUACG (pool 0.235) gave inoculated region 0.125; leaf margin 0; systemic leaves 0. With GGACCGUUUG (pool 0.0261) the assay gave inoculated region 0.00579; leaf margin 0; systemic leaves 0. UUGACGCGCG (pool 0.170) read inoculated region 0.0826; leaf margin 0; systemic leaves 0. UGACCGGCGG (pool 0.261) gave inoculated region 0.203; leaf margin 0.306; systemic leaves 0.0607. UGAUCGGCCG (pool 0.235) read inoculated region 0.0775; leaf margin 0; systemic leaves 0. UUUGCGCCGG (pool 0.209) gave inoculated region 0.0775; leaf margin 0; systemic leaves 0.

UUAUCGAUAG (pool 0.340) read inoculated region 0.101; leaf margin 0.0788; systemic leaves 0. UGAGAGAGAG (pool 0.0131) gave inoculated region 0; leaf margin 0; systemic leaves 0. UGAGCGCUCG (pool 0.392) read inoculated region 0.0838; leaf margin 0.0261; systemic leaves 0. UGUACGCAUG (pool 0.118) gave inoculated region 0.103; leaf margin 0.00920; systemic leaves 0. UACGCGGACG (pool 0.261) gave inoculated region 0.0708; leaf margin 0; systemic leaves 0.

Excerpt, the final 3 entries:

sequence,pool,inoculated region,leaf margin,systemic leaves
UGAGCGCUCG,0.392,0.0838,0.0261,0
UGUACGCAUG,0.118,0.103,0.00920,0
UACGCGGACG,0.261,0.0708,0,0